Pooled drug test results. Numbers come from NIAID ChemDB, via PubChem.

Shared fields: tests in culture; organism: HIV-1; method: cytopathic effect / MTT; read-out: EC50

ECn: concentration that inhibits the pathogen or its effect by n%. Neighbouring rows are from separate reports. An empty or dashed field is not shown.

smiles	mutations	cells	strain	result
Cc1cn([C@H]2C[C@H](N=[N+]=[N-])[C@@H](CO)O2)c(=O)[nH]c1=O	-	MT-4	IIIB	0.0014 µg/mL
CCn1c(=O)c(C)cn([C@@H]2O[C@H](CO[Si](C)(C)C(C)(C)C)C3(OS(=O)(=O)C=C3N)[C@H]2O[Si](C)(C)C(C)(C)C)c1=O	-	MT-4	Recombinant wild type	0.06 µM
Cc1ccccc1Cn1cc2c(c1)S(=O)(=O)c1cc(Cl)ccc1NC2=O	-	MT-4	IIIB	>200 µM
Nc1ncnc2c1ncn2C=C1CC1CO	-	MT-4	IIIB	26 µM
Cc1cc(SC2=C(O)C[C@](CCc3ccc(O)cc3)(C(C)C)OC2=O)c(C(C)(C)C)cc1CO	-	CEM	IIIB	17 µM
Cc1c(Cc2c(F)cccc2F)nc(NC2CCCC2)[nH]c1=O	RT-Y181C	MT-4	-	0.8 µM
O=C(NCCc1c[nH]c2ccccc12)C1=Cc2ccncc2CC1	-	CEM + CEM-SS	RF	>51 µM
CC(C)(C)NC(=O)[C@@H]1CN(Cc2cccnc2)CCN1C[C@@H](O)C[C@@H](Cc1ccccc1)C(=O)N[C@H]1c2ccccc2C[C@H]1O	-	MT-4	IIIB	0.046 µM
C=CCn1c(C(=O)c2cccc3ccccc23)c(C(C)C)c(=O)[nH]c1=O	-	MT-4	IIIB	0.17 µM
CCC[C@@]1(CCc2ccccc2)CC(O)=C([C@H](CC)c2cccc(NS(=O)(=O)c3ccc(C(F)(F)F)cn3)c2)C(=O)O1	-	MT-4	IIIB	0.376 µM
Nc1ccn([C@H]2CC[C@@H](CO)O2)c(=O)n1	-	CEM + CEM-SS	IIIB	0.028 µM
CO[C@@H]1[C@@H](OC(=O)c2ccc(C)[nH]2)[C@@H](O)C(Oc2ccc3c(O)c(NC(=O)c4c[nH]c(C(=O)Nc5c(O)c6ccc(OC7OC(C)(C)[C@H](OC)[C@@H](OC(=O)c8ccc(C)[nH]8)[C@H]7O)c(C)c6oc5=O)c4C)c(=O)oc3c2C)OC1(C)C	-	MT-4	-	1.5 µg/mL
C/C=C(\C)CC/C=C(\C)CC/C=C(\C)CC/C=C(\C)CC/C=C(\C)CC/C=C(\C)CC/C=C(\C)CC/C=C(\C)CC/C=C(\C)Cn1c(C(=O)c2cccc3ccccc23)c(C(C)C)c(=O)[nH]c1=O	-	MT-4	IIIB	>72.01 µM
COc1nc(Cl)nc(Nc2ccc(Cl)c(OCC=C(C)C)c2)n1	-	MT-2	IIIB	>26 µM
CC(=O)OC[C@H]1O[C@@H](SCCOP(=O)(OCCS[C@@H]2O[C@H](CO)[C@@H](O)[C@H](O)[C@H]2O)OC[C@H]2O[C@@H](n3cc(C)c(=O)[nH]c3=O)C[C@@H]2N=[N+]=[N-])[C@H](OC(C)=O)[C@@H](OC(C)=O)[C@@H]1OC(C)=O	-	MT-4	IIIB	0.06 µM
CC(C)CCN(C[C@@H](O)[C@H](Cc1ccccc1)NC(=O)[C@H](CC(N)=O)NC(=O)c1ccc2ccccc2n1)C(=O)NC(C)(C)C	-	CEM	IIIB	0.01 µM
C[C@H](Cn1cnc2c(N)ncnc21)OCP(=O)(O)O	RD 22-RTwt	MT-4	-	0.56 µM
OCCS	-	CEM	IIIB	>100 µM
CCc1c(C(=O)c2cccc3ccccc23)n(Cc2ccccc2)c(=O)[nH]c1=O	-	MT-4	IIIB	1.07 µM
CCCCCCCCCCCCOC1OC(COS(=O)(=O)O)C(OS(=O)(=O)O)C(OC2OC(COS(=O)(=O)O)C(OS(=O)(=O)O)C(OC3OC(COS(=O)(=O)O)C(OS(=O)(=O)O)C(OC4OC(COS(=O)(=O)O)C(OS(=O)(=O)O)C(OC5OC(COS(=O)(=O)O)C(OS(=O)(=O)O)C(OS(=O)(=O)O)C5OS(=O)(=O)O)C4OS(=O)(=O)O)C3OS(=O)(=O)O)C2OS(=O)(=O)O)C1OS(=O)(=O)O	-	MT-4	IIIB	0.7 µg/mL
N#Cc1ccc(Nc2nc(N)nc(Oc3c(Cl)cccc3Cl)n2)cc1	RT-Y188L	MT-4	NNRTI-resistant (RT Y188L)	3.2 µM
Nc1ncnc2c1ncn2[C@H]1CC[C@@H](CO)O1	-	MT-4	-	10 µM
CN=C1CN=C(c2ccc[nH]2)c2cc(Cl)ccc2N1	-	CEM	IIIB	0.058 µg/mL
CCCCCCCCCCCCCCCCCCOC1OC(COS(=O)(=O)O)C(OC2OC(COS(=O)(=O)O)C(OC3OC(COS(=O)(=O)O)C(OC4OC(COS(=O)(=O)O)C(OC5OC(COS(=O)(=O)O)C(OC6OC(COS(=O)(=O)O)C(OS(=O)(=O)O)C(OS(=O)(=O)O)C6O)C(OS(=O)(=O)O)C5O)C(O)C4OS(=O)(=O)O)C(O)C3OS(=O)(=O)O)C(OS(=O)(=O)O)C2O)C(OS(=O)(=O)O)C1O	-	PBL	IIIB	13.1 µg/mL
C=CCn1c(C(=O)c2cccc3ccccc23)c(CC)c(=O)[nH]c1=O	-	MT-4	IIIB	0.6 µM
Cc1cc(SC2=C(O)C[C@@](CCc3ccc(O)cc3)(C(C)C)OC2=O)c(C(C)(C)C)cc1CO	-	CEM	IIIB	0.46 µM
CCCNc1nc(C(C)c2c(F)cccc2F)c(C)c(=O)[nH]1	RT-Y181C	MT-4	-	0.2 µM
CCCC1(CCc2ccc(O)cc2)CC(O)=C(Sc2cc(C)c(OCCO)cc2C(C)(C)C)C(=O)O1	-	CEM	IIIB	4.3 µM
Nc1nc2c(ncn2CCOCP(=O)(O)O)c(=O)[nH]1	-	MT-4	-	0.14 µM
Cc1c(Cc2c(F)cccc2F)nc(NC2CCCCC2)[nH]c1=O	-	MT-4	IIIB	0.03 µM
CC(C)=CCN1Cc2cc(Cl)cc3[nH]c(=S)n(c23)C[C@@H]1C	-	MT-4	Recombinant wild type	0.087 µM
Nc1nc(Cl)nc2c1ncn2[C@@H]1C[C@@H](F)[C@H](CO)O1	-	MT-4	-	>10 µM
Fc1cccc(F)c1[C@@H]1SCc2nc3ccccc3n21	-	MT-4	IIIB	0.7 µg/mL
Cc1cc(SC2=C(O)CC(CCc3ccc(O)cc3)(C3CC3)OC2=O)c(C(C)(C)C)cc1CO	-	CEM	IIIB	1.6 µM
Cc1ccnc2c1NC(=O)c1cccnc1N2C1CC1	RT-Y181C	MT-4	-	>30 µM
CC(C)(C)NC(=O)N(Cc1ccccc1)C[C@@H](O)[C@H](Cc1ccccc1)NC(=O)[C@H](CC(N)=O)NC(=O)c1ccc2ccccc2n1	-	CEM	IIIB	0.021 µM
CO[C@@H]1[C@@H](OC(N)=O)[C@@H](O)[C@H](Oc2ccc3c(O)c(NC(=O)c4ccc(O)c(CC=C(C)C)c4)c(=O)oc3c2C)OC1(C)C	-	MT-4	-	>109 µg/mL
O=S(=O)(O)OCC1OC(O)C(OS(=O)(=O)O)C(OC2OC(COS(=O)(=O)O)C(OS(=O)(=O)O)C(OC3OC(COS(=O)(=O)O)C(OS(=O)(=O)O)C(OC4OC(COS(=O)(=O)O)C(OS(=O)(=O)O)C(OC5OC(COS(=O)(=O)O)C(OS(=O)(=O)O)C(OS(=O)(=O)O)C5OS(=O)(=O)O)C4OS(=O)(=O)O)C3OS(=O)(=O)O)C2OS(=O)(=O)O)C1OS(=O)(=O)O	-	MT-4	IIIB	163 µg/mL
Nc1ncnc2c1ncn2CCOCP(=O)(O)O	-	MT-4	-	4.8 µM
Cc1cn([C@@H]2O[C@H](CO[Si](C)(C)C(C)(C)C)C3(OS(=O)(=O)C=C3N)[C@H]2O[Si](C)(C)C(C)(C)C)c(=O)n(C)c1=O	-	MT-4	Recombinant wild type	0.055 µM
CC(C)=CCOc1cc(Nc2ncnc(Cl)n2)ccc1Cl	-	MT-2	IIIB	>45 µM
CC(C)[C@H](NC(=O)[C@H](NCc1ccccc1)[C@H](O)[C@H](Cc1ccccc1)NC(=O)[C@H](CCC(=O)O)NC(=O)OCc1ccccc1)C(=O)NCc1ccccc1	-	MT-4	IIIB	2 µM
CCOC(=O)c1cn(C)cc1S(=O)(=O)c1ccccc1	-	MT-4	IIIB	>200 µM
O=S(=O)(O)OCC1OC(O)C(OS(=O)(=O)O)C(OS(=O)(=O)O)C1OC1OC(COS(=O)(=O)O)C(OC2OC(COS(=O)(=O)O)C(OC3OC(COS(=O)(=O)O)C(OC4OC(COS(=O)(=O)O)C(OS(=O)(=O)O)C(OS(=O)(=O)O)C4OS(=O)(=O)O)C(OS(=O)(=O)O)C3OS(=O)(=O)O)C(OS(=O)(=O)O)C2OS(=O)(=O)O)C(OS(=O)(=O)O)C1OS(=O)(=O)O	-	MT-4	IIIB	267 µg/mL
O=c1[nH]cnc2c1ncn2[C@H]1CC[C@@H](CO)O1	-	MT-4	IIIB	5.37 µM
Cc1c(C(C)c2c(F)cccc2F)nc(SC2CCCC2)[nH]c1=O	RT-Y181C	MT-4	NNRTI-resistant	0.1 µM
O=C1Nc2ccc(Cl)cc2S(=O)(=O)c2c[nH]cc21	-	CEM + MT-4	-	10 µM
CC(=O)OC[C@H]1O[C@@H](SCCOP(=O)(OCS[C@@H]2O[C@H](COC(C)=O)[C@@H](OC(C)=O)[C@H](OC(C)=O)[C@H]2OC(C)=O)OC[C@H]2O[C@@H](n3cc(C)c(=O)[nH]c3=O)C[C@@H]2N=[N+]=[N-])[C@H](OC(C)=O)[C@@H](OC(C)=O)[C@@H]1OC(C)=O	-	MT-4	IIIB	0.3 µM
Cc1cn([C@H]2C[C@H](N=[N+]=[N-])[C@@H](CO)O2)c(=O)[nH]c1=O	-	MT-4	IIIB	0.01 µM
CC(C)(C)NC(=O)[C@@H]1C[C@@H]2CCCC[C@@H]2CN1C[C@@H](OC(=O)C(CS)NC(=O)CCONC(=O)CCCCC1SCC2NC(=O)NC21)[C@H](Cc1ccccc1)NC(=O)[C@H](CC(N)=O)NC(=O)c1ccc2ccccc2n1	-	MT-2	LAV/LAI	0.125 µM
Cc1c(C(C)c2c(F)cccc2F)nc(NC(C)C)[nH]c1=O	RT-Y181C	MT-4	-	0.5 µM
CC(=O)c1ccc(C)cc1NC(C(N)=O)c1c(Cl)cccc1Cl	RT-A98S	MT-4	Recombinant mutant	0.014 µM
Cc1cn([C@H]2C[C@H](N=[N+]=[N-])[C@@H](COP(=O)(OCCS[C@@H]3O[C@H](CO)[C@@H](O)[C@H](O)[C@H]3O)OCCS[C@@H]3O[C@H](CO)[C@@H](O)[C@H](O)[C@H]3O)O2)c(=O)[nH]c1=O	-	MT-4	IIIB	0.04 µM
C[C@H](Cn1cnc2c(N)ncnc21)OCP(=O)(O)OP(=O)(O)OP(=O)(O)O	-	MT-4	-	>200 µM
Nc1nc(Cl)nc2c1ncn2[C@@H]1C[C@@H](O)[C@H](CO)O1	-	MT-4	-	>10 µM
CC(c1cc(=O)[nH]c(NC2CCCC2)n1)c1c(F)cccc1F	-	MT-4	IIIB	0.02 µM
CCc1c(C(=O)c2cccc3ccccc23)n(C/C=C/c2ccccc2)c(=O)[nH]c1=O	-	MT-4	IIIB	0.19 µM
CC(C)(S)[C@@H](N)C(=O)O	-	CEM	IIIB	>100 µM
Nc1ncnc2c1ncn2CCOCP(=O)(O)OP(=O)(O)OP(=O)(O)O	-	MT-4	-	>200 µM
Cc1cn([C@H]2C[C@H](N=[N+]=[N-])[C@@H](CO)O2)c(=O)[nH]c1=O	-	CEM + CEM-SS	SK1	0.004 µM
O=c1cc(Cc2c(F)cccc2F)nc(SC2CCCC2)[nH]1	RT-Y181C	MT-4	-	5.3 µM

The last 7 rows once more:

smiles	mutations	cells	strain	result
Nc1nc(Cl)nc2c1ncn2[C@@H]1C[C@@H](O)[C@H](CO)O1	-	MT-4	-	>10 µM
CC(c1cc(=O)[nH]c(NC2CCCC2)n1)c1c(F)cccc1F	-	MT-4	IIIB	0.02 µM
CCc1c(C(=O)c2cccc3ccccc23)n(C/C=C/c2ccccc2)c(=O)[nH]c1=O	-	MT-4	IIIB	0.19 µM
CC(C)(S)[C@@H](N)C(=O)O	-	CEM	IIIB	>100 µM
Nc1ncnc2c1ncn2CCOCP(=O)(O)OP(=O)(O)OP(=O)(O)O	-	MT-4	-	>200 µM
Cc1cn([C@H]2C[C@H](N=[N+]=[N-])[C@@H](CO)O2)c(=O)[nH]c1=O	-	CEM + CEM-SS	SK1	0.004 µM
O=c1cc(Cc2c(F)cccc2F)nc(SC2CCCC2)[nH]1	RT-Y181C	MT-4	-	5.3 µM